Data as given in ChEMBL document CHEMBL1157539, “Thousands of chemical starting points for antimalarial lead identification” (Nature, 2010).

Test system: Plasmodium falciparum
Assay: GSK_TCMDC: Inhibition of Plasmodium falciparum 3D7 in whole erythrocytes, using parasite LDH activity as an index of growth.

## CCN1CCCC(OC(=O)C(O)(c2ccc3c(c2)OCO3)c2ccc3c(c2)OCO3)C1 (stereo unspecified)
  XC50: 785 nM
